Anti-infective test results gathered from many reports (values: NIAID ChemDB through PubChem).

Common to all: tests in culture; agent: HIV-1; cell line: MT-4; measure: EC50

Blank or dashed fields: not listed here. ECn is the concentration giving n% inhibition of infection, replication or growth. Conditions beyond the fields shown may differ between rows.

SMILES,strain,changes,method,value
Cc1cc(C#N)cc(C)c1Oc1nc(Nc2ccc(C#N)cc2)ncc1SCC(=O)NCC1CCCO1,,F227L V106A,MTT,0.2944 µM
C/C=C/C=C/CN1Cc2cccc3[nH]c(=O)n(c23)CC1C,IIIB,,cytopathic effect / MTT,>378 µM
CCc1c(Cc2ccccc2)n(COCC2CC2)c(=O)[nH]c1=O,EFVR,K103R/V179D/P225H,MTT,>100 µM
C=C(CN1Cc2cccc3[nH]c(=O)n(c23)CC1C)C(=O)OCC,IIIB,,cytopathic effect / MTT,>3 µM
Cc1cc(C)cc(S(=O)(=O)c2c(C(=O)NS(=O)(=O)c3ccc(F)cc3F)[nH]c3ccc(Cl)cc23)c1,,E138K,MTT,2.01 µM
CC(=O)N1CCn2c(nc(C(=O)NCc3ccc(F)cc3)c(O)c2=O)C1,,,p24,<50 µM
CC(C)(C)OC(=O)N(CCCCCCOC(=O)OC[C@H]1O[C@@H](n2ccc(N)nc2=O)CS1)CCCCCN(Cc1ccccc1)C(=O)OC(C)(C)C,LAV,,syncytia,1 µM
CCCS(=O)(=O)NC(=O)c1[nH]c2ccc(Cl)cc2c1S(=O)(=O)c1cc(C)cc(C)c1,,Y188L,MTT,>141 µM
CC1NCCn2c1nc(C(=O)NCc1ccc(F)cc1)c(O)c2=O,,,p24,<50 µM
CN1OCCc2cn([C@H]3C[C@H](O)[C@@H](CO)O3)c(=O)nc21,IIIB,,,>300 µM
Nc1nc2c(ncn2[C@@H]2O[C@H](CO)[C@H](F)[C@H]2O)c(=O)[nH]1,,,cytopathic effect,>490 µM
CNc1nc2ccc(S(=O)(=O)N(CC(C)C)C[C@@H](O)[C@H](Cc3ccccc3)NC(=O)COc3c(C)cc([N+](=O)[O-])cc3C)cc2o1,LAI WT,,cytopathic effect / MTT,0.0035 µM
CN1OCc2cn([C@@H]3O[C@H](CO)[C@H]4OC(C)(C)O[C@H]43)c(=O)nc21,IIIB,,,>300 µM
CC(C)(C)OC(=O)N(CCCCCC(=O)OC[C@H]1O[C@@H](n2ccc(N)nc2=O)CS1)CCCCN(Cc1ccccc1)C(=O)OC(C)(C)C,LAV,,syncytia,0.1 µM
Cc1cc(C)cc(S(=O)(=O)c2c(C(=O)NS(=O)(=O)c3ccc(F)cc3)[nH]c3ccc(Cl)cc23)c1,,Y181C,MTT,>121 µM
CC(C)CN(C[C@@H](O)[C@H](Cc1ccccc1)NC(=O)OC1COC2OCCNC12)S(=O)(=O)c1ccc2nc(N)oc2c1,LAI WT,,cytopathic effect / MTT,0.6761 µM
O=C(O)CN1CCn2c(nc(C(=O)NCc3ccc(F)cc3)c(O)c2=O)C1,,,p24,<50 µM
O=C(CCCCCNCc1ccccc1)Nc1ccn([C@H]2CS[C@@H](COC(=O)CCCCCNCc3ccccc3)O2)c(=O)n1,LAV,,syncytia,10 µM
Cc1cc(/C=C/C#N)cc(C)c1Oc1ccnc(Nc2ccc(CN3CCN(S(=O)(=O)N(C)C)CC3)cc2)n1,IIIB,,MTT,0.0045 µM
CCc1c(Cc2ccc(OC)c(OC)c2)n(COCCCc2ccccc2)c(=O)[nH]c1=O,EFVR,K103R/V179D/P225H,MTT,>38 µM
Nc1ncnc2c1ncn2[C@H]1CC[C@@H](CO)O1,IIIB,,RT activity / antigen,0.21 µg/mL
Nc1nc2c(ncn2[C@@H]2O[C@H](CO)[C@@H](F)[C@H]2O)c(=O)[nH]1,,,cytopathic effect,>877 µM
OC[C@H]1O[C@@H](n2nnc3c(Cl)nccc32)[C@H](O)[C@@H]1O,,,cytopathic effect,>359 µM
Cc1cc(C#N)cc(C)c1Oc1nc(Nc2ccc(C#N)cc2)ncc1SCC(=O)NC1CC1,,E138K,MTT,0.0102 µM
Cc1cc(N)c(N)c(C)c1OCC(=O)N[C@@H](Cc1ccccc1)[C@H](O)CN(CC(C)C)S(=O)(=O)c1ccc2nc(N)oc2c1,LAI WT,,cytopathic effect / MTT,0.0955 µM
CC1Cn2c(=O)[nH]c3cccc(c32)CN1C/C=C/c1ccccc1,IIIB,,cytopathic effect / MTT,>783 µM
Cc1cc(C)cc(S(=O)(=O)c2c(C(=O)NS(=O)(=O)c3ccccc3)[nH]c3ccc(Cl)cc23)c1,,L100I,MTT,6.81 µM
Cn1ccc(CN2CCn3c(nc(C(=O)NCc4ccc(F)cc4)c(O)c3=O)C23CC3)n1,,,p24,<1 µM
Nc1nc2c(ncn2[C@@H]2O[C@H](CO)[C@H]2CO)c(=O)[nH]1,IIIB,,RT activity / antigen,7.3 µg/mL
CCc1c(Cc2cccc3ccccc23)nc(SCC(=O)NC)[nH]c1=O,IIIB,,antigen,>100 µM
Nc1ncnc2c1nnn2[C@@H]1O[C@H](CO)[C@@H](O)[C@H]1O,,,cytopathic effect,>0.3 µM
CNc1nc2ccc(S(=O)(=O)N(CC(C)C)C[C@@H](O)[C@H](Cc3ccccc3)NC(=O)c3cccc(O)c3C)cc2o1,LAI WT,,cytopathic effect / MTT,0.0093 µM
[N-]=[N+]=N[C@H]1C[C@H](n2cc3c(nc2=O)NOCC3)O[C@@H]1CO,IIIB,,,200 µM
Cc1c(C(=O)N[C@@H](Cc2ccccc2)[C@H](O)CN(CC(C)C)S(=O)(=O)c2ccc3nc(N)oc3c2)ccc2ncoc12,LAI WT,,cytopathic effect / MTT,0.0078 µM
OC[C@H]1O[C@@H](n2nnc3c(Cl)nccc32)C[C@@H]1O,,,cytopathic effect,>272 µM
Cn1ccc(CN2CCn3c(nc(C(=O)NCc4ccc(F)cc4)c(O)c3=O)C23CCOCC3)n1,,,p24,<1 µM
C#CCNC(=O)CSc1cnc(Nc2ccc(C#N)cc2)nc1Oc1c(C)cc(C#N)cc1C,,F227L V106A,MTT,0.126 µM
O=C(O)CN(CCN(CC(=O)O)Cc1cnc2c(O)cccc2c1)CC(=O)O,HXB2,,RT activity,9.6 µM
CCc1c(Cc2ccc(C)cc2)n(COCCCc2ccccc2)c(=O)[nH]c1=O,EFVR,K103R/V179D/P225H,MTT,>43 µM
CC(O)c1nc(=O)n([C@@H]2O[C@H](CO)[C@H]3OC(C)(C)O[C@H]32)cc1CO,IIIB,,,>300 µM
Cc1cc(C)cc(S(=O)(=O)c2c(C(=O)NS(=O)(=O)C(F)(F)F)[nH]c3ccc(Cl)cc23)c1,,K103N,MTT,21.56 µM
Cc1cc(C#N)cc(C)c1Oc1nc(Nc2ccc(C#N)cc2)ncc1SCC(=O)NCCN1CCOCC1,,E138K,MTT,0.0238 µM
CC(C)CN(C[C@@H](O)[C@H](Cc1ccccc1)NC(=O)OCc1cccnc1)S(=O)(=O)c1ccc2nc(N)oc2c1,LAI WT,,cytopathic effect / MTT,0.0155 µM
Cc1cc(C#N)cc(C)c1Oc1nc(Nc2ccc(C#N)cc2)ncc1SCC(=O)NC1CCN(C(=O)OC(C)(C)C)CC1,,RES056,MTT,0.5858 µM
CCc1c(-c2coc(CC/C(C)=C/c3ccccc3)n2)oc(OC)c(C)c1=O,IIIB,,cytopathic effect / thymidine uptake,<0.00066 µM
O=C(CCCCCNCCCCCNCc1ccccc1)Nc1ccn([C@H]2CS[C@@H](CO)O2)c(=O)n1,LAV,,syncytia,10 µM
Nc1ncnc2c1nnn2[C@H]1CC[C@@H](CO)O1,,,cytopathic effect,>0.3 µM
C=CCNC(=O)CSc1cnc(Nc2ccc(C#N)cc2)nc1Oc1c(C)cc(C#N)cc1C,IIIB,,MTT,0.0033 µM
CCc1c(Cc2cc(C)cc(C)c2)n(COCC2CC2)c(=O)[nH]c1=O,A17,K103N/Y181C,MTT,>51 µM
Cc1cc(C#N)cc(C)c1Oc1nc(Nc2ccc(C#N)cc2)ncc1SCC(=O)NCCN1CCN(C(=O)OC(C)(C)C)CC1,,RES056,MTT,0.4535 µM
CC(C)N1Cc2cccc3[nH]c(=O)n(c23)CC1C,IIIB,,cytopathic effect / MTT,>65 µM
Cc1cc(C#N)cc(C)c1Oc1nc(Nc2ccc(C#N)cc2)ncc1SCC(=O)Nc1ccc(S(C)(=O)=O)cc1,,Y188L,MTT,0.2095 µM
CC(C)(C)OC(=O)N(CCCCCC(=O)Nc1ccn([C@H]2CS[C@@H](CO)O2)c(=O)n1)Cc1ccccc1,LAV,,syncytia,20 µM

For reference, 8 entries again:

SMILES	strain	changes	method	value
O=C(O)CN1CCn2c(nc(C(=O)NCc3ccc(F)cc3)c(O)c2=O)C1			p24	<50 µM
CNc1nc2ccc(S(=O)(=O)N(CC(C)C)C[C@@H](O)[C@H](Cc3ccccc3)NC(=O)c3cccc(O)c3C)cc2o1	LAI WT		cytopathic effect / MTT	0.0093 µM
Nc1nc2c(ncn2[C@@H]2O[C@H](CO)[C@@H](F)[C@H]2O)c(=O)[nH]1			cytopathic effect	>877 µM
Nc1nc2c(ncn2[C@@H]2O[C@H](CO)[C@H](F)[C@H]2O)c(=O)[nH]1			cytopathic effect	>490 µM
CC(O)c1nc(=O)n([C@@H]2O[C@H](CO)[C@H]3OC(C)(C)O[C@H]32)cc1CO	IIIB			>300 µM
CC1Cn2c(=O)[nH]c3cccc(c32)CN1C/C=C/c1ccccc1	IIIB		cytopathic effect / MTT	>783 µM
Cc1cc(N)c(N)c(C)c1OCC(=O)N[C@@H](Cc1ccccc1)[C@H](O)CN(CC(C)C)S(=O)(=O)c1ccc2nc(N)oc2c1	LAI WT		cytopathic effect / MTT	0.0955 µM
Cc1cc(C)cc(S(=O)(=O)c2c(C(=O)NS(=O)(=O)c3ccc(F)cc3)[nH]c3ccc(Cl)cc23)c1		Y181C	MTT	>121 µM